From PMC3866116 (PLoS ONE, 2013)

Tested on: HCV subgenomic replicon RNA of genotype 1b strain N (Huh7/Rep-Feo cells)
Experiment: Luciferase assay in HCV subgenomic replicon cell line Huh7/Rep-Feo
Assay type: cell-based, hepatitis C virus
Conditions: strain N (1b)
Procedure: The Huh7/Rep-Feo cell line, which harbors the subgenomic replicon RNA composed of HCV IRES, the gene of the fusion protein consisting of neomycin phosphotransferase and firefly luciferase, EMCV IRES and a nonstructural gene of genotype 1b strain N in order in Huh7 cell line, was previously established. Thus, the luciferase activity corresponds to the level of HCV RNA replication. The cell line was maintained in Dulbecco's modified Eagle medium containing 10% fetal calf serum and 0.5 mg/mL G418 and cultured in absence of G418 when they were treated with compounds. The Lunet/Con1LUN Sb #26 cell line, which harbors the subgenomic replicon RNA of the Con1 strain (genotype 1b), was described previously. The OR6 cell line, which harbors the full genomic replicon RNA of the O strain (genotype 1b), was described previously. The HCV replicon cell line derived from the genotype 2a strain JFH1 was described previously. The viral RNA derived from the plasmid pJFH1 was transcribed and introduced into Huh7OK1 cells according to the method of Wakita et al.. The virus was amplified by the several times passages. The cells were infected with the virus at a multiplicity of infection (moi) of 1 and then treated with each compound at 24 h post-infection. The culture supernatants were harvested 72 h post-treatment to estimate the viral RNA as described below.
The replicon cells were seeded at 2×10^4 cells per well in a 48-well plate 24 h before treatment. […] The resulting cells were harvested 72 h post-treatment and lysed with cell culture lysis reagent (Promega, Madison, WI). The luciferase activity of each cell lysate was estimated using a luciferase assay system (Promega). The resulting luminescence was detected by a Luminescencer-JNR AB-2100 (ATTO, Tokyo, Japan).

Row | SMILES | SI, selectivity index (CC50/EC50)
1 | COc1cc(/C=C/C(=O)O)ccc1O [Compound 3, ferulic acid] | >4.5
2 | O=C(C=Cc1ccccc1)OCCc1ccccc1 [Compound 4, Cinnamic acid phenethyl ester] | >3.7
3 | COC(=O)/C=C/c1ccc(O)c(O)c1 [Compound 7, caffeic acid methyl ester] | 4.2
4 | COC(=O)CCc1ccc(O)c(O)c1 [Compound 12, Dihydrocaffeic acid methyl ester] | 1.8
